Reference: PubChem BioAssay AID1259414 (Drosophila RNAi Screening Center, 2018)
Aim: 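Host factors increasing or decreasing Wolbachia levels in cultured fly cells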 (primary screen). System: Drosophila JW18 cells infected with Wolbachia. Knock-down reagent: long dsRNA against Drosophila genes, 0.25 µg dsRNA per well of a 384-well plate. Duration: 5 days. Treatment: cells persistently infected with Wolbachia before knock-down; no added drug. Detection: 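Imaged fluorescence in situ signal for Wolbachia 23S rRNA per DAPI-counted host cell, given as a robust z-score within each plate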. Direction: Wolbachia per cell robust z: higher = more Wolbachia per host cell than the plate typical. Call rule: 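Hit when robust z is 1.5 or more, or -1.5 or less, in at least two of three replicates; excludes dsRNAs with several or no targets, genes not expressed in JW18 and well A1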.
The screen tested about 24,000 reagents; this is a random part of those that have a named target and a result. Over the whole deposit, about 1,210 (5%) are marked active. 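Inactive calls also include excluded dsRNAs with several or no targets, genes unexpressed in JW18, and well A1, regardless of score.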 Reagents against one gene are numbered here. A plus sign joins genes that one reagent is predicted to hit. No sequences are given here.

gene	reagent no.	Wolbachia per cell robust z, rep 1	Wolbachia per cell robust z, rep 2	Wolbachia per cell robust z, rep 3	Outcome
djl (GeneID 40839)	1	2.23	0.226	-0.661	inactive
djl (GeneID 40839)	2	1.09	-1.5	-1.23	inactive
ppk23 (GeneID 32731)	1	-4.92	0.411	-0.0754	inactive
ppk23 (GeneID 32731)	2	-0.0973	0.261	-0.0318	inactive
RpL30 (GeneID 44059)	1	3.93	2.9	4.64	active
Cpr65Ay (GeneID 5740348)	1	-1.18	1.04	-0.229	inactive
Ugt50B3 (GeneID 246614)	1	-1.7	0.307	-1.68	inactive
Ugt50B3 (GeneID 246614)	2	-0.808	0.132	-1.33	inactive
Ubi-p5E (GeneID 326237)	1	-1.93	0.442	0.222	inactive
CG4770 (GeneID 42375)	1	0.138	1.56	-4.15	inactive
Mrp5 (GeneID 42362)	1	-1.16	-1.83	-1.09	inactive
Mrp5 (GeneID 42362)	2	-1.46	0.845	-6.61	inactive
Mrp5 (GeneID 42362)	3	-0.812	-0.00741	-8.45	inactive
CG42390 (GeneID 42600)	1	-0.948	0.68	0.177	inactive
CG42390 (GeneID 42600)	2	0.105	-6.67	1.34	inactive
AnxB10 (GeneID 33019)	1	-0.777	0.446	-0.482	inactive
AnxB10 (GeneID 33019)	2	1.45	0.825	0.38	inactive
CG13689 (GeneID 33241)	1	-0.207	-6.84	0.0361	inactive
CR41243 (GeneID 10178783)	1	-0.976	-2.83	-0.531	inactive
CG6873 (GeneID 32861)	1	-0.27	0.495	0.443	inactive
saturn (GeneID 317880)	1	-1.33	-1.72	0.169	inactive
saturn (GeneID 317880)	2	0.61	1.57	1.44	inactive
PolQ (GeneID 41571)	1	1.68	-4.6	-5.92	active
Saysd1 (GeneID 43029)	1	0.726	0.238	-1.48	inactive
e(y)2b (GeneID 50143)	1	0.199	-0.835	-0.36	inactive
Src64B (GeneID 48973)	1	0.317	-0.663	-4.88	inactive
Src64B (GeneID 48973)	2	-0.0321	0.349	0.229	inactive
CG10731 + sotv	1	-0.286	-5.16	-0.0228	inactive
CG9733 (GeneID 43601)	1	-0.0776	0.655	-0.223	inactive
ND-18 (GeneID 32936)	1	1.42	0.819	1.39	inactive
CheA75a (GeneID 40011)	1	-0.211	1.15	-0.294	inactive

Only “Wolbachia per cell robust z, rep 3”, for 10 of the entries above:
djl (GeneID 40839) #1 = -0.661
djl (GeneID 40839) #2 = -1.23
ppk23 (GeneID 32731) #1 = -0.0754
ppk23 (GeneID 32731) #2 = -0.0318
RpL30 (GeneID 44059) = 4.64
Cpr65Ay (GeneID 5740348) = -0.229
Ugt50B3 (GeneID 246614) #1 = -1.68
Ugt50B3 (GeneID 246614) #2 = -1.33
Ubi-p5E (GeneID 326237) = 0.222
CG4770 (GeneID 42375) = -4.15

Additional results follow.
gene	reagent no.	Wolbachia per cell robust z, rep 1	Wolbachia per cell robust z, rep 2	Wolbachia per cell robust z, rep 3	Outcome
CCAP-R (GeneID 2768688)	1	-0.0393	0.293	0.437	inactive
CCAP-R (GeneID 2768688)	2	-3.69	0.391	1.88	inactive
CCAP-R (GeneID 2768688)	3	0.419	-0.025	0.049	inactive
CG2006 + Spase12	1	-4.7	-1.16	-3.32	inactive
CG15818 (GeneID 34019)	1	0.537	0.289	1.23	inactive
CG15818 (GeneID 34019)	2	0.672	0.23	-0.769	inactive
CG45067 + CG45066	1	-0.726	0.431	-0.659	inactive
CG12744 (GeneID 36024)	1	-9	-0.698	0.445	inactive
Patj (GeneID 44100)	1	-0.0193	0.166	0.699	inactive
Patj (GeneID 44100)	2	0.807	0.503	1.22	inactive
Cyp6u1 (GeneID 35608)	1	-0.299	0.727	-1.23	inactive
Cyp6u1 (GeneID 35608)	2	-0.776	0.24	0.148	inactive
InR (GeneID 42549)	1	0.658	-1.75	-0.268	inactive
InR (GeneID 42549)	2	-2.28	-4.92	-2.08	inactive
Fst (GeneID 41169)	1	-0.848	0.256	-3.11	inactive
Fst (GeneID 41169)	2	0.796	0.872	0.501	inactive
Cyp6a16 (GeneID 19836250)	1	0.0865	1.24	0.399	inactive
CG15528 (GeneID 43575)	1	-4.86	0.652	-0.536	inactive
Dic4 (GeneID 40039)	1	0.866	-0.37	1.01	inactive
Vps50 (GeneID 37021)	1	-0.654	-0.435	-0.199	inactive
CG4681 (GeneID 37928)	1	1.3	-0.37	1.2	inactive
CG4681 (GeneID 37928)	2	-0.0109	-2	0.193	inactive
CG32320 (GeneID 317977)	1	0.364	-1.06	0.235	inactive
CG32320 (GeneID 317977)	2	0.534	-0.17	0.526	inactive
Cp7Fc (GeneID 31786)	1	0.679	0.0972	-0.694	inactive
Cp7Fc (GeneID 31786)	2	0.96	-0.412	1.04	inactive
CG15812 (GeneID 38379)	1	-0.192	-1.85	-0.274	inactive
Or59c (GeneID 37716)	1	-2.43	-4.83	0.251	inactive
CG6013 (GeneID 42286)	1	0.0989	-0.198	2.35	inactive
CG6013 (GeneID 42286)	2	0.275	-0.36	-0.648	inactive
AdamTS-A (GeneID 41887)	1	0.121	-0.785	-0.22	inactive
AdamTS-A (GeneID 41887)	2	-5.91	0.672	0.935	inactive
moon (GeneID 32176)	1	-3.69	-0.736	-0.388	inactive
CG43108 (GeneID 12798329)	1	0.648	-2.27	-1.21	inactive
dpr17 (GeneID 41470)	1	0.937	0.434	-0.0798	inactive
dpr17 (GeneID 41470)	2	0.452	1.2	-0.0184	inactive
CG11413 + CG4622	1	0.364	-5.5	-0.236	inactive
SLIRP1 + anox	1	1.94	0.173	1.35	inactive
CG31740 (GeneID 261618)	1	-0.435	-0.639	-0.593	inactive
CG15894 (GeneID 31574)	1	0.944	-0.136	-1.12	inactive
CG8584 (GeneID 35856)	1	0.997	0.357	0.753	inactive
CG8584 (GeneID 35856)	2	-1.14	-1.56	0.603	inactive
Neto (GeneID 32303)	1	-2.18	-1.6	-1.02	inactive
Neto (GeneID 32303)	2	0.0969	-2.01	-0.234	inactive
Neto (GeneID 32303)	3	-0.309	-0.0293	1.27	inactive
Neto (GeneID 32303)	4	0.742	-0.475	-2.82	inactive
Neto (GeneID 32303)	5	-1.07	0.0607	-4.08	inactive
Hk (GeneID 31955)	1	0.518	-0.0634	-0.879	inactive
Hk (GeneID 31955)	2	0.201	0.469	0.141	inactive
Hk (GeneID 31955)	3	-4.04	0.332	-0.574	inactive
CG31606 (GeneID 318842)	1	-2.92	-0.871	-1.68	active
Lamtor5 (GeneID 31137)	1	-1.48	-3.38	-2.14	active
CG33158 (GeneID 39834)	1	0.987	-0.257	-1.58	inactive
CG33158 (GeneID 39834)	2	0.647	0.386	0.538	inactive
CG33158 (GeneID 39834)	3	-1.61	-1.6	-1.95	active
Cat (GeneID 40048)	1	0.243	0.282	-0.247	inactive
Cat (GeneID 40048)	2	-4.49	-0.303	0.955	inactive
Cat (GeneID 40048)	3	0.596	0.127	-0.342	inactive
